This is an account of results in the supplement of paper PMC9931576.

Human monoclonal antibodies against the spike receptor-binding domain (heavy:light variable regions). IC50 against pseudoviruses bearing the spike of naturally observed variants; lower = stronger; >10 µg/ml means not reached at the top dose. No active / inactive call. The stated detection limit is 0.0005 µg/ml; values near or below 0.001 µg/ml lie at the floor of the assay. A value given as a limit tells only on which side of the number the result lay.

Assay in all cases: pseudovirus neutralization IC50; higher = weaker neutralization
Experiment [1] addresses SARS-CoV-2 Omicron BA.1 spike pseudovirus. The procedure:
(§1)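 Single-round VSV luciferase pseudovirus mixed with antibody dilutions for 1 h and put on Huh-7 cells for about a day; IC50 from the dose curve.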

Experiment [2] deals with SARS-CoV-2 Omicron BA.2 spike pseudovirus. The procedure:
as §1

For experiment [3], the target named is SARS-CoV-2 Omicron BA.2.75 spike pseudovirus. The protocol:
as §1

Experiment [4] addresses SARS-CoV-2 Omicron BA.5 spike pseudovirus. The protocol: as §1
The target of experiment [5] is SARS-CoV-2 Omicron BQ.1.1 spike pseudovirus. The protocol:
as §1

In experiment [6] the target is SARS-CoV-2 Omicron XBB spike pseudovirus. The procedure:
as §1

For experiment [7], the target named is SARS-CoV-2 early D614G spike pseudovirus. The procedure: as §1

B1: BD56-919 (protein)
chain 1: QVQLVESGGGVVQPGRSLRLSCAVSGFTFRTYVMHWVRQAPGKGLEWVATILYDGSDTYHSDSVKGRFTISRDNSKNTLYLQMNSLRTEDTAVYYCAKQGGPYCSGGSCYGGVFDYWGQGTPVTVSS
chain 2: DIQMTQSPSSLSASVRDRVTITCQASQDINNHLNWYQQKPGKAPKLLVYDASNLETGVPSRFSGSGSGTDFTFTISSLQPEDFATYYCQQYDNLPLTFGGGTKVEIK
Turning to B1, the “pseudovirus neutralization IC50” value in experiment [1], in experiment [2], in experiment [3], in experiment [4], in experiment [5] and in experiment [6] was > 10 µg/mL each time. In experiment [7], the “pseudovirus neutralization IC50” value is > 10 µg/mL.

B2: BD56-913 (protein)
chain 1: EVQLVESGGDLVKPGGSLRLSCAASGFSFSDAWMTWVRQSPGKGLEWVGRIKTQIDGGTKDYAAPVKGRFTISRDDSKNTLHLDMNSLKTEDTALYYCTTDFNPLDDYGGYWGQGTLVTVSS
chain 2: SYVLTQPPSVSVAPGKTARITCGGDNIGNKRVQWYQQKPGQAPVLVIYYDRDRPSGIPERFSGSNSGNTATLTISRVEAGDEADFYCQVWDTNSDHFWVFGGGTKLTVL
Take B2: the “pseudovirus neutralization IC50” value was 0.86 µg/mL in experiment [1]; 1.37 µg/mL in experiment [2]; > 10 µg/mL in experiment [3]; > 10 µg/mL in experiment [4]; > 10 µg/mL in experiment [5]; > 10 µg/mL in experiment [6]. For the same molecule, the “pseudovirus neutralization IC50” value in experiment [7] is > 10 µg/mL.

B3: BD56-915 (protein)
chain 1: EVQLVESGGGLVQPGRSLTVSCAASGFTFEDYAIHWVRQTPGKGLEWVSGMSCNSATIGYADSVKGRFIISRDNAKNSLYLHMRSLRAEDTALYYCVKDRESSGESSGFDYWGQGTLVTVSP
chain 2: SYVLTQPPSVSVAPGKTAIISCGVNNIGTKGVHWYQQKPGQAPVLVIYYDSDRPSGIPERFSGSKSGSTATLTITRVEAGDEADYYCQVWDSSSDLWVFGGGTKLTVL
For B3, the “pseudovirus neutralization IC50” value in experiment [1] was 0.102 µg/mL; in experiment [2] it was 0.22 µg/mL; in experiment [3] it was 0.27 µg/mL; in experiment [4], > 10 µg/mL; in experiment [5], > 10 µg/mL; in experiment [6], 3.84 µg/mL. Moreover, the “pseudovirus neutralization IC50” value in experiment [7] is 0.011 µg/mL.

B4: BD56-904 (protein)
chain 1: QVQLVQSGAEVKKPGSSVKVSCKASGGTFSSYAISWVRQAPGQGLEWMGRIIPILGIANFAQKFQGRVTITADKSTNTAYMELSSLRSEDTAVYYCARDEGYSGSGSNNWFDPWGQGTLVTVSS
chain 2: QSVLTQPPSVSGAPGQRVTISCTGSNSNIGAGYDVHWYQQLRGTAPKVLIYGNSNRPSGVPDRFSGSKSGTSASLAITGLQAEDEADYYCQSYDSGLSGSVFGGGTKLTVL
B4: the “pseudovirus neutralization IC50” value is 2.99 µg/mL in experiment [1]; 1.83 µg/mL in experiment [2]; 1.51 µg/mL in experiment [3]; > 10 µg/mL in experiment [4]; > 10 µg/mL in experiment [5]; 2.58 µg/mL in experiment [6]. The “pseudovirus neutralization IC50” value in experiment [7] amounted to 2.3 µg/mL.

B5: BD56-911 (protein)
chain 1: HVQLVQSGAEVKKPGSSVKVSCLASGDSLSSYTISWVRQAPGQGLEWMGGIIPILGIPNYAQKFQGRVTITADKSTSTAYMELSSLRSEDTAVYFCAREWGVLGYCSSTSCYSLWGQGTMVTVSS
chain 2: QSVLTQPPSVSGAPGQRVTISCTGSSSNIGAGYDVHWYQQLPGTAPKLLIYDNTNRPSGVPDRFSGSKSGTSASLAITGLQAEDEADYYCQSYDSSLSAVVFGGGTKLTVL
Take B5: the “pseudovirus neutralization IC50” value was 0.443 µg/mL in experiment [1]; 0.381 µg/mL in experiment [2]; 0.69 µg/mL in experiment [3]; > 10 µg/mL in experiment [4]; > 10 µg/mL in experiment [5]; > 10 µg/mL in experiment [6]. In experiment [7], the “pseudovirus neutralization IC50” value was determined as 0.328 µg/mL.

B6: BD56-907 (protein)
chain 1: EVQLVESGGGLVQTGRSLRLSCAASGFTFDDYAMHWVRQAPGKGLDWVSGITSNSGTIGYADSVKGRFTISRDNAKNSLYLQINSLRAEDTALYYCAKDGRQWLVEGEGFFDYWGQGTRVTVSS
chain 2: QSALTQPASVSGSPGQSITISCTGTSSDVGGFNYVSWYRQDPGKAPKFMIYDVSKRPSGVSNRFSGSKSGNTASLTISGLQAEDESDYYCSSYTSSSTYVFGTGTKVTVL
Turning to B6, the “pseudovirus neutralization IC50” value in experiment [1], in experiment [2], in experiment [3], in experiment [4], in experiment [5] and in experiment [6] was > 10 µg/mL each time. The “pseudovirus neutralization IC50” value in experiment [7] came to 0.594 µg/mL.
